Measurements reported in patent publication US20090317419A1, “Tetramers” (Duke University, priority 2008, published 2009).

Biological target: peptide …
Experiment: peptide ELISA, mAb at 1 µg/mL

F39F (antibody)
OD @ 405 nm: 0.956 OD
